Experimental data from patent publication US8349839B2, “Inhibitors of HIV replication” (Boehringer Ingelheim International GmbH, priority 2009, dated 2013).

Tests used:
[1] = target: HIV reverse transcriptase (Human immunodeficiency virus type 1 group M subtype B, UniProt P04585); test: HIV Reverse Transcriptase Assay (IC50); settings: assay of Example 67; 1 mM of ATP added to the reaction mixture
Experimental: (§1) Diluted solutions of stock solutions of compounds of Formula I in DMSO are prepared in assay buffer in Eppendorf tubes 16 h prior to their use in the biological assay, using a minimal supplementary volume of 75 μL of assay buffer in addition to the volume required in the assay. The samples are vortexed for 10 min at RT and incubated for 16 h at 4° C. The equilibrated solutions are centrifuged at 16 000 g for 5 min in a centrifuge equipped with an internal chiller, which is pre-equilibrated at 4° C., and the supernatant is collected. The portion of supernatant required for the serial dilutions in the biological assay is transferred to the compound dilution plate and a 75 μL portion of the remaining supernatant is transferred to a 1.4 mL tube (Micronic). A 25 μL volume of DMSO is promptly added and the sample is submitted for concentration determination by HPLC, along with the stock solution of the compound in DMSO as a standard for concentration determination analysis.
HIV Reverse Transcriptase Assay (IC50)
The assay used to measure inhibition of HIV reverse transcriptase is as described in WO 2006/034583, pages 52-53, incorporated herein by reference, except that 1 mM of ATP was added to the reaction mixture.

[2] = test system: HIV-1 replication in C8166 LTRluc cells; test: C8166 HIV-1 Luciferase Assay (EC50); assay type: cell-based; settings: assay of Example 68; C8166 LTRluc cells infected with HIV-1 at moi 0.005, 3 days
Experimental: as §1
C8166 HIV-1 Luciferase Assay (EC50) […]
50 μL Steady Glo (luciferase substrate T1/2=5 hours Promega catalogue # E2520) is added to each well of the 96 well plate. The relative light units (RLU) of luciferase are determined using a luminescence plate reader. The calculated % inhibition values are used to determine EC50, slope factor (n) and maximum inhibition (Imax).

CCCCCn1c(=O)nc(-c2ccccc2)c2oc3ccc(-c4ccc(CN(C)C)cc4)cc3c21
pIC50 [1]: 7.57 | pEC50 [2]: 7.00

pEC50, pIC50: −log10 of the molar value.
